Earlier results on one compound are cited in PMC12724327, “Structure-guided discovery of a small molecule inhibitor of SARS-CoV-2 main protease with potent in vitro and in vivo antiviral activities” (Journal of Virology, 2025).

Molecules are shown by their SMILES.

This data set concerns the target SARS-CoV-2 M^pro (Severe acute respiratory syndrome coronavirus 2, UniProt P0DTD1). As to conditions: cited from earlier work.

Regarding `CC(C)(C)OC(=O)N[C@H](C(=O)N[C@@H](Cc1ccccc1)C(=O)N[C@H](C=O)C[C@@H]1CCNC1=O)C(C)(C)C`, the IC50 (as a rule, the concentration that inhibits the measured activity by half) is 8.8 nM.
